“Also recorded” adds a separate entry of the source.
Experiments:
CD133 = assay: FACS analysis of stem/progenitor marker CD133 after treatment; assay type: cell-based, human; conditions: HuH-7, HepG2, and Hep3B cells, compared with the control
Text: (§1) For flow cytometry, FACSCanto™ II (BD Biosciences, San Jose, Calif.) was used. Cancer cells were washed with phosphate-buffered saline, and then enzymatically dissociated with 0.05% trypsin-EDTA (Invitrogen). The trypsinized cells were suspended in FACS buffer, and analyzed on FACSCanto™ II using FACSDiva software (BD Biosciences). For the analysis of hepatic stem/progenitor markers, primary antibodies against Ep-CAM (#324206; Biolegend, San Diego, Calif.), CD13 (#555394; BD Pharmingen), CD44 (#555479; BD Pharmingen), CD90 (#328110; BioLegend), CD133 (#130-080-801; Miltenyi Biotec, Gladbach, Germany), Mouse IgG1 κtype (#555749; BioLegend), and Mouse IgG2b κtype (#400314; BioLegend) were used. All antibodies were conjugated directly with phycoerythrin (PE). The immunostaining and analysis were performed according to the instructions from the manufacturer.
(§2) These markers were chosen because they were reported as biomarkers of HCC with poor prognosis. […] There was no consistent tendency for the positive rate of CD44 and CD90 after the treatment of each cell line.

CD13 = assay: FACS analysis of stem/progenitor marker CD13 after treatment; assay type: cell-based, human; conditions: HuH-7 and Hep3B cells
Text: as §1, §2

[1] = Protein properties of VB4-845 (isoelectric point, water solubility); assay type: physicochemical
Procedure: The resulting protein retains the specificity of the parent 4D5MOCB for Ep-CAM. The expression vector for the protein, pING3302 (Plasmid pING3302 from Xoma Ireland Ltd was used for the construction of the expression vector) is carried and expressed by the E 104 E. coli host strain. The protein is 648 amino acids in length and has a predicted molecular weight of 69.7 kilodaltons (kDa).

[2] = tested on: HuH-7 subcutaneous xenografts; assay: Subcutaneous xenograft model; assay type: in vivo, NOD.CB17-PRkdcScid/J mice; conditions: three weeks after initiation; VB4-845 30 μg/kg i.v., 5-FU 30 mg/kg i.p., three times a week for 2 weeks
Procedure: Twenty five-week-old female NOD.CB17-PRkdcScid/J mice purchased from Charles River Laboratory Inc. (Kanagawa, Japan) were injected with 1×10^6 HuH-7 cells mixed with the same amount of Matrigel (BD Biosciences) subcutaneously into the both flanks of mice under anesthesia. […] Tumor size was measured using calipers three times a week and tumor volumes calculated using the following equation: volume=(length)×(width)2×0.5. The mice were sacrificed three weeks after the initiation of treatment.

[3] = tested on: Ep-CAM-positive SW2 and Ep-CAM-negative COLO320 xenografts; assay: Biodistribution of radiolabeled VB4-845 in xenograft-bearing mice; assay type: in vivo
[4] = Short term stability in biological fluid (human plasma, serum and urine); assay type: in vitro ADME; conditions: up to 16 hrs incubation
[5] = tested on: MCF-7 breast cancer cells; assay: Mammosphere re-plating assay with Trypan Blue exclusion; assay type: cell-based
[6] = Analytical gel filtration, thermal stability at 37° C. in PBS; assay type: physicochemical
Procedure: The shelf-life of the product when stored at −70° C. is at least six months. At physiological conditions (e.g., incubation of the drug product for four hours at 37° C. in PBS), the majority of the immunoconjugate molecules (at least 91%) are still eluted as monomers of the appropriate molecular weight (approximately 70 kDa).
Analytical gel filtration and determination of thermal stability. […] Samples were analyzed at different time points (after 0 h, 2 h, 4 h, 8 h, 10 h and 20 h) by gel filtration using the Smart system (Pharmacia, Uppsala) with a Superose-12 PC3.2/30 column. The column was calibrated in the same buffer with three protein standards: alcohol dehydrogenase (Mr 150,000), bovine serum albumin (Mr 66,000) and carbonic anhydrase (Mr 29,000). The same analytical setting was used to assess the thermal stability of the 99m Tc-labeled immunoconjugate after a 20 h incubation at 37° C. in human serum. The amount of immunoconjugate monomers was determined by g-scintillation counting of the eluted fractions.

[7] = Shelf-life and short term stability studies of the product; assay type: physicochemical
Procedure: The sample product is labeled, stored, and shipped according to written and approved standard operating procedures. The product may be shipped under frozen conditions (e.g., on dry ice), and may be maintained, for example, at the study site in a limited access, controlled −70° C. freezer that is monitored regularly for temperature. The product may be maintained at this condition until time of use.
Short term stability studies have been conducted to evaluate the inherent stability of the investigational product under routine handling at the clinical site.

[8] = tested on: Ep-CAM^high cell lines (HuH-7, HepG2, Hep3B and HuH-1); assay: Sphere formation assay; assay type: cell-based, human; conditions: 48 h treatment (VB4-845 1-10 pM, 5-FU 1-5 μg/ml), 7 days of culture
Procedure: Briefly, 1×10^6 cells of HuH-7, HepG2, Hep3B and HuH-1 were seeded in four 10 cm dishes. […] After 48h, the medium was changed to drug-free medium and incubated for 24 h. After cell viability was confirmed by trypan blue exclusion, the remaining viable cells were collected and plated separately at 1×10^2 cells in low attachment plates (96-well Ultra Low Cluster Plate; Costar, Corning, N.Y.), and incubated in serum-free Dulbecco's modified Eagle medium/F12 medium (Invitrogen). Sphere formation was observed using AxioObserver (Carl Zeiss, Oberkochen, Germany), and the images were acquired digitally using AxioVision software (Carl Zeiss).

Substance: VB4-845
- positive rate of CD133 (CD133): significantly decreased
- positive rate of CD13 (CD13): significantly decreased
- isoelectric point (pI) [1]: approximately 5.9
- water solubility [1]: water-soluble forming a clear solution
- volume of tumors [2]: 476±134 mm^3
- dose detected in SW2 tumors ([3]; 24 hours): 1.95 % ID/g
- dose detected in SW2 tumors ([3]; 48 hours): 1.13 % ID/g
- total dose in the blood ([3]; after 24 hours): 0.42 % ID/g
- dose in COLO320 control tumors ([3]; after 48 hours): only background levels
- dose in COLO320 control tumors ([3]; after four hours): 1.06 % ID/g
- dose detected in SW2 tumors ([3]; after four hours (maximum)): 2.93 % ID/g
- dose in COLO320 control tumors ([3]; after thirty minutes (maximum)): 1.65 % ID/g
- blood clearance ([3]; compared with parental scFv): slower blood clearance than the parental scFv
- localization in normal tissues ([3]; mouse, in vivo): localized in the kidney, spleen, liver and to a lower extent in the bone
- retains binding property and cell toxicity [4]: at least 16 hrs
- cytotoxicity by Trypan Blue ([5]; Day 10 post re-plating): cytotoxic, but not cytostatic; also recorded: Cytotoxicity was confirmed
- sphere formation after re-plating ([5]; test items removed from the culture media, 7 days): no spheres were formed; also recorded: failed to produce any spheres
- initial protein present in monomeric form ([6]; after twenty hours at 37° C.): ≥ 47%
- immunoconjugate molecules still eluted as monomers ([6]; four hours at 37° C. in PBS): at least 91%
- stable in original packaging ([7]; refrigerated, 2-8° C.): at least 24 hours
- stable in original packaging ([7]; room temperature): at least 20 hours
- biological activity over short-term stability studies ([7]; room temperature, 2-8° C., injection buffer with and without 800 mM urea up to six hours, repeated freeze-thaw): retain its biological activity
- shelf-life ([7]; stored at −70° C.): at least six
- sphere formation by surviving cells [8]: did not form such spheres

Reference: US20160060352A1, “COMPOSITIONS AND METHODS FOR DETECTION AND TREATMENT OF HEPA[…]” (VIVENTIA BIO INC., priority 2013, published 2016)
